The values that follow come from US20230174690A1, “COMPOSITIONS AND METHODS FOR SINGLE-STEP MULTIPURPOSE SURFACE FUNCTIONALIZATION” (Rutgers, The State University of New Jersey, priority 2019, published 2023).

This data set is described as follows: Modified MicroBCA assay of Cu(I) production from Cu(II). As to conditions: 10 mM compound with CuSO4 5 mM; 37° C., 30 min.

Turning to `C#CCOCCOCCNC(=O)[C@@H](N)Cc1ccc(O)c(O)c1` [p-DOPAmide, (S)-2-amino-3-(3,4-dihydroxyphenyl)-N-(2-(2-(prop-2-yn-1-yloxy)ethoxy)ethyl)-propanamide], the “Cu(I) production (violet colour of the Cu(I)-BCA complex)” value is given as “violet color was formed”.
